Compound potency records, mixed from different reports. Data source: NIAID ChemDB in PubChem.

Common to all: toxicity to cultured cells; cell line: MDBK; read-out: CC50

CCn is the concentration with n% toxicity to the cells. Rows are shuffled and stem from different studies. Blank or dashed fields: not listed here.

compound,method,value
CC(=O)O[C@H]1CC[C@@]23Oc4c(c(OCc5ccccc5)cc5c4CNC5=O)C[C@]2(C)[C@@H](C)CC[C@H]3C1(C)C,,12 µM
CC(C)NC(=O)[C@@H]1[C@H](O)[C@@H](O)CN1C(=O)c1ccoc1,visual reading,>300 µM
CC(=O)N[C@H](C(=O)N[C@@H](CCC(=O)O)C(=O)N[C@@H](CC(C)C)C(=O)N[C@@H](CCCCN)C(=O)N[C@@H](CCC(=O)O)C(=O)NC(CC(C)C)B1OC(C)(C)C(C)(C)O1)C(C)O.O=C(O)C(F)(F)F,crystal violet,>90 µM
CC(=O)O[C@H]1C[C@H](n2cc(C#CI)c(=O)[nH]c2=O)O[C@@H]1CO,neutral red,>100 µM
COc1cc(O)c2c(=O)c3cc(N)c(Cl)cc3n(C)c2c1,,5 µg/mL
CCOC(=O)c1c(CSc2ccccc2)n(C)c2cc(Br)c(O)c(CN(N3CCN(CCO)CC3)N3CCN(CCO)CC3)c12,ATP,52.3 µM
Clc1ccc(Cn2ccc3nc(-c4ccccc4)nc-3c2)cc1,,51 µg/mL
CCOC(=O)c1c(CSc2ccccn2)n(C)c2cc(Br)c3c(c12)CN(C)CO3,ATP,43.9 µM
C=CCNC(=S)N=Nc1c(O)n(CN2CCOCC2)c2ccc([N+](=O)[O-])cc12,,>50 µg/mL
COc1cc(OC)c2c(=O)c3cc(N)c(Cl)cc3n(C)c2c1,,83 µg/mL
CC(=O)O[C@@H]1C[C@@H](CO)O[C@H]1n1cc(/C(I)=C\I)c(=O)[nH]c1=O,neutral red,>100 µM
Cc1ccc(Cn2ccc3nc(-c4ccccc4)nc-3c2)cc1,,45 µg/mL
O=[N+]([O-])c1ccc2c(c1)c(N=NC(=S)Nc1ccc(Cl)cc1)c(O)n2CN1CCCCC1,,19 µg/mL
CCOC(=O)c1c(CSc2ccccc2)n(C)c2cc(C#N)c(O)c(CN(N(C)C)N(C)C)c12,ATP,68.3 µM
CC(=O)O[C@@H]1C[C@@H](CO)O[C@H]1n1cc(/C(Br)=C\I)c(=O)[nH]c1=O,neutral red,>100 µM
Brc1ccc(Cn2ccc3nc(-c4ccccc4)nc-3c2)cc1,,28 µg/mL
CC(=O)O[C@@H]1[C@H](OC(C)=O)[C@@H](CO)O[C@H]1n1cc(/C(Cl)=C\I)c(=O)[nH]c1=O,neutral red,>100 µM
Cc1ccc(NC(=S)N=Nc2c(O)n(CN3CCOCC3)c3ccc([N+](=O)[O-])cc23)cc1,,21 µg/mL
Cc1ccc(C(C)C)c(O)c1,MTT,1400 µg/mL
COc1ccc2c(c1)[C@@H]1C[C@]1(C(=O)N1[C@@H]3CC[C@H]1CN(C)C3)Cn1c-2c(C2CCCCC2)c2ccc(C(=O)NS(=O)(=O)N(C)C)cc21,resazurin,43 µM
CC(c1ccccc1)n1ccc2nc(-c3ccccc3)nc-2c1,,>75 µg/mL
CN[C@H](CC(C)C)C(=O)N[C@H]1C(=O)N[C@@H](CC(N)=O)C(=O)N[C@H]2C(=O)N[C@H]3C(=O)N[C@H](C(=O)N[C@H](C(=O)C(=O)CNOCc4ccc(Cc5ccccc5)cc4)c4cc(O)cc(O)c4-c4cc3ccc4O)[C@H](O[C@H]3C[C@](C)(N)[C@@H](O)[C@H](C)O3)c3ccc(cc3)Oc3cc2cc(c3O[C@@H]2O[C@H](CO)[C@@H](O)[C@H](O)[C@H]2O[C@H]2C[C@](C)(N[NH2+][O-])[C@@H](O)[C@H](C)O2)Oc2ccc(cc2Cl)C1O,,≥300 µM
c1ccc(-c2nc3ccn(Cc4ccc5ccccc5c4)cc-3n2)cc1,,21 µg/mL
CC(=O)Oc1cc2c(c3c1C[C@]1(C)[C@@H](C)CC[C@H]4C(C)(C)[C@@H](OC(C)=O)CC[C@]41O3)CNC2=O,,40 µM
O=[N+]([O-])c1ccc2c(c1)c(N=NC(=S)NC1CCCCC1)c(O)n2CN1CCCCC1,,21 µg/mL
C[C@H]1CC[C@H]2C(C)(C)C(=O)CC[C@]23Oc2c(c(O)cc4c2CNC4=O)C[C@]13C,,98 µM
CN1C(=O)CS/C1=N/N=C1\C(=O)Nc2ccc([N+](=O)[O-])cc21,,>50 µg/mL
CCOC(=O)c1c(CSc2ccccc2)n(C)c2cc(N=[N-])c3c(c12)CN(C)CO3,ATP,19.9 µM
CC1S/C(=N/N=C2\C(=O)Nc3ccc([N+](=O)[O-])cc32)N(c2ccccc2)C1=O,,7 µg/mL
Cc1ccccc1-c1nc2ccn(Cc3ccc(Br)cc3)cc-2n1,,66 µg/mL
O=C1Nc2ccc([N+](=O)[O-])cc2/C1=N/N=C1/SCC(=O)N1c1ccc(Cl)cc1,,2 µg/mL
Cc1cccc(Cn2ccc3nc(-c4ccccc4)nc-3c2)c1,,40 µg/mL
CC(=O)OC1CC[C@@]23Oc4c(c(O)cc5c4C(=O)NC5=O)C[C@]2(C)[C@@H](C)CC[C@H]3C1(C)C,,28 µM
CNC(=S)N=Nc1c(O)[nH]c2ccc([N+](=O)[O-])cc12,,>50 µg/mL

A second listing of 4 rows from above:

compound,method,value
CC1S/C(=N/N=C2\C(=O)Nc3ccc([N+](=O)[O-])cc32)N(c2ccccc2)C1=O,,7 µg/mL
CN1C(=O)CS/C1=N/N=C1\C(=O)Nc2ccc([N+](=O)[O-])cc21,,>50 µg/mL
CCOC(=O)c1c(CSc2ccccc2)n(C)c2cc(Br)c(O)c(CN(N3CCN(CCO)CC3)N3CCN(CCO)CC3)c12,ATP,52.3 µM
CNC(=S)N=Nc1c(O)[nH]c2ccc([N+](=O)[O-])cc12,,>50 µg/mL